Laboratory results from patent US20180002699.

Biological target: T1, full-length synthetic Tat protein (aa 1-72)
T1 chain: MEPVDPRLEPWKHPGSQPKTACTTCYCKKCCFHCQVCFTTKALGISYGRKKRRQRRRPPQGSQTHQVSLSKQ

B1: recombinant SMYD2 (SET and MYND domain containing-2 histone methyltransferase), wild type (protein)
chain: MRAEGLGGLERFCSPGKGRGLRALQPFQVGDLLFSCPAYAYVLTVNERGNHCEYCFTRKEGLSKCGRCKQAFYCNVECQKEDWPMHKLECSPMVVFGENWNPSETVRLTARILAKQKIHPERTPSEKLLAVKEFESHLDKLDNEKKDLIQSDIAALHHFYSKHLGFPDNDSLVVLFAQVNCNGFTIEDEELSHLGSAIFPDVALMNHSCCPNVIVTYKGTLAEVRAVQEIKPGEEVFTSYIDLLYPTEDRNDRLRDSYFFTCECQECTTKDKDKAKVEIRKLSDPPKAEAIRDMVRYARNVIEEFRRAKHYKSPSELLEICELSQEKMSSVFEDSNVYMLHMMYQAMGVCLYMQDWEGALQYGQKIIKPYSKHYPLYSLNVASMWLKLGRLYMGLEHKAAGEKALKKAIAIMEVAHGKDHPYISEIKQEIESH
B1 was tested, and the “in vitro methylation (3H-SAM, autoradiography)” value was “Tat was methylated in response to SMYD2”.
